For this experiment, the system named is E. coli O157:H7 (5-strain cocktail). In words: Minimum bactericidal concentration in broth. In kind it is cell-based, Escherichia coli O157:H7.

Only a part of the results on these compounds is given; other tests are left out.

Consider ρ-hydroxybenzyl cyanide, for which, where the note is “E. coli O157:H7, pH 5.5, 25° C., 18 hours”, the “Growth inhibition (p < 0.05)” value is reported as 18.78 mM. Moreover, the “inhibitory activity against E. coli O157:H7” value (summary in words of Table 1) is “very weak”.

The record behind these values is patent US20110045139A1, “FERMENTED SAUSAGE AND METHODS OF MAKING SAME” (priority 2009, published 2011).
